Data taken from PubChem BioAssay AID1117264 (The Scripps Research Institute Molecular Screening Center, 2014).
The list shows a part of the results, in another mix than the full data. Calls of active or inactive are those of the source.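 The calls were made as follows: active = inhibition above the mean inhibition across all screened compounds plus 3 SD (cut at about 11% in these data); inactive = the rest.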

By UniProt entry, the sequences of proteins in these tests, tags left out.
UniProt P86926, whole entry: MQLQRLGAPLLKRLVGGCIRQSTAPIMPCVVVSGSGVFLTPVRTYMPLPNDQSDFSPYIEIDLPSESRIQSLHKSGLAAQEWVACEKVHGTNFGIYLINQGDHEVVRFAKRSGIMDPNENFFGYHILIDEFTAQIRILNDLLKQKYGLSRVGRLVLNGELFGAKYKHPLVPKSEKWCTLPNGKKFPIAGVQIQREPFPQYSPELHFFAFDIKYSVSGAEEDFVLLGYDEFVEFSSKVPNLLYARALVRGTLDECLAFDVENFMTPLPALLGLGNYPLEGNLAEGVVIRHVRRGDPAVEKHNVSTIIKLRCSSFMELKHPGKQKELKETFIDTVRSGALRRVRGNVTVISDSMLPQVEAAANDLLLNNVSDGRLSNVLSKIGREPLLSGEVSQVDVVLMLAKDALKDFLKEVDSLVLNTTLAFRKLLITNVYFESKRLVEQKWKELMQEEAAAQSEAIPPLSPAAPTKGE

target: RNA-editing ligase 1, mitochondrial (Trypanosoma brucei brucei) (UniProt P86926); assay: T. brucei editing ligase REL1 blockade – biochemical, FRET fluorescence, primary screen (AID 1117264); settings: TbREL1 RNA ligation, at 9.66 µM, stronger effect = higher value;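 also: 0% = plate median of test wells and 100% = NSC42067 control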

SMILES | inhibition
CP(=O)(Nc1ccccc1Br)Oc1ccccc1 (stereo not drawn) | inactive: 1.02%
COc1ccccc1OP(C)(=O)Nc1ccccc1 (stereo not drawn) | inactive: -0.31%
CP(=O)(Oc1ccccc1)OC(c1ccccc1)C(F)(F)F (stereo not drawn) | inactive: 1.68%
CCN(CC)CCCOC(=O)C(O)(c1ccccc1)c1ccccc1 | inactive: 3.08%
COc1ccccc1-c1ccccn1.O=[N+]([O-])c1cc([N+](=O)[O-])c(O)c([N+](=O)[O-])c1 | inactive: 3.42%
CC(C)(C)c1ccc(OP(C)(=O)Nc2ccc(SC(F)(F)F)cc2)cc1 (stereo not drawn) | inactive: 4.17%
Cc1cc(C)cc(OP(C)(N)=O)c1 (stereo not drawn) | inactive: 2.51%
COc1ccc(OP(C)(=O)Nc2cccc(F)c2)cc1 (stereo not drawn) | inactive: 0.86%
CCOC(=O)c1ccc(NP(C)(=O)Oc2ccccc2)cc1 (stereo not drawn) | inactive: -0.98%
Cc1ccc(C)c(NP(C)(=O)Oc2ccccc2)c1 (stereo not drawn) | inactive: -0.53%
CP(=O)(Nc1cccc(Br)c1)Oc1ccccc1 (stereo not drawn) | inactive: -1.06%
CCCOc1ccc(NP(C)(=O)Oc2ccc(Cl)cc2)cc1 (stereo not drawn) | inactive: -2.47%
CP(=O)(Nc1ccc(Cl)cc1Cl)Oc1ccccc1 (stereo not drawn) | inactive: 2.53%
CP(=O)(Nc1ccccn1)Oc1ccccc1 (stereo not drawn) | inactive: 2.61%
Cc1c(NP(C)(=O)Oc2ccc(C(C)C)cc2)c(=O)n(-c2ccccc2)n1C (stereo not drawn) | inactive: -2.82%
COc1ccc(OP(C)(=O)Nc2ccc(Br)cc2)cc1 (stereo not drawn) | inactive: 1.75%
CN(C)C(=O)c1c([N+](=O)[O-])cc([N+](=O)[O-])cc1[N+](=O)[O-] | inactive: -1.18%
CCOC(=O)c1ccc(NP(C)(=O)Oc2ccc(Cl)cc2)cc1 (stereo not drawn) | inactive: 5.43%
